From article PMC3612826, “Structural-Functional Analysis of 2,1,3-Benzoxadiazoles and Their N-oxides As HIV-1 Integrase Inhibitors” (Acta Naturae, 2013) come the findings set out here.

One test deals with HIV-1 IN N155H mutant (Human immunodeficiency virus type 1 group M subtype B, UniProt P12497, N1302H). Description: Inhibition of the strand transfer reaction, Raltegravir-resistant mutant IN. The note with it: for Inhibitory activity during the strand transfer reaction, N155H mutant, IC95: 95 % suppression; for IC50: read-out: Inhibitory activity during the strand transfer reaction, N155H mutant, IC50.

In test [1] the target is HIV-1 IN Q148K/G140S mutant (Human immunodeficiency virus type 1 group M subtype B, UniProt P12497, G1287S/Q1295K). Described as above. The note with it: for Inhibitory activity during the strand transfer reaction, Q148K/G140S mutant, IC95: 95 % suppression; for IC50: read-out: Inhibitory activity during the strand transfer reaction, Q148K/G140S mutant, IC50.
The next test deals with recombinant HIV-1 IN (Human immunodeficiency virus type 1 group M subtype B, UniProt P12497). The experiment in a line: Inhibition of the 3'-end processing reaction. The test is classed as biochemical.
Another test has as its target wild-type HIV-1 IN (Human immunodeficiency virus type 1 group M subtype B, UniProt P12497). The experiment in a line: Inhibition of the strand transfer reaction, wild-type IN. The test is classed as biochemical. The note with it: for Inhibitory activity during the strand transfer reaction, wild-type, IC95: 95 % suppression.
In a further test the target is HIV-1 IN active site (Human immunodeficiency virus type 1 group M subtype B, UniProt P12497). The settings on record: read-out: IC, binding of DNA at the active site of IN; covalent attachment of U5B/U5A^m duplex 10 nM to IN 100 nM, 1 h, 37°C.
For test [2], the target named is HIV-1 IN (DNA-binding activity) (Human immunodeficiency virus type 1 group M subtype B, UniProt P12497). Description: Gel shift analysis: binding of IN to DNA. The note with it: read-out: IC, binding of IN to DNA, U5B/U5A duplex, 25°C. For orientation: A gel shift assay detects complexes by their altered migration in electrophoresis.
The mark [3] stands for this setting: read-out: IC, 3'-processing, Mg^2+, Mg^2+ cofactor.
The mark [4] stands for this setting: read-out: IC, 3'-processing, Mn^2+, Mn^2+ cofactor.
[5] abbreviates: read-out: IC, strand transfer, Mg^2+, Mg^2+ cofactor.
The mark [6] stands for this setting: read-out: IC, strand transfer, Mn^2+, Mn^2+ cofactor.
[7] abbreviates: read-out: Inhibitory activity during the strand transfer reaction, wild-type, IC50, wild-type IN.

Where two headings read alike, the source gives them in different places.

On to 6-nitro-BFZ, for which the “Inhibitory activity during the strand transfer reaction, N155H mutant, IC95” value on HIV-1 IN N155H mutant came out at 18.8 ± 2.5 µM. For the same compound, the IC50 amounted to 6 µM at HIV-1 IN N155H mutant; 4 µM in test [1]; 0.5 µM at recombinant HIV-1 IN (setting [3]); 1 µM on recombinant HIV-1 IN (setting [4]); 5 µM at wild-type HIV-1 IN (setting [5]); 4 µM at wild-type HIV-1 IN (setting [6]). Further, the IC50 was 5 µM on wild-type HIV-1 IN (setting [7]) and 1 µM on HIV-1 IN active site. Besides, in test [1], the “Inhibitory activity during the strand transfer reaction, Q148K/G140S mutant, IC95” value amounted to 15.3 ± 2.8 µM. The “Inhibitory activity during the strand transfer reaction, wild-type, IC95” value on wild-type HIV-1 IN (wild-type IN) is 18.0 ± 2.0 µM.

In the case of `Cc1ccc([N+](=O)[O-])c2no[n+]([O-])c12`, the “Inhibitory activity during the strand transfer reaction, N155H mutant, IC95” value at HIV-1 IN N155H mutant is 8.2 ± 1.7 µM. In addition, the IC50 on HIV-1 IN N155H mutant was 0.9 µM; in test [1], 0.8 µM; at recombinant HIV-1 IN (setting [3]) it was 0.5 µM; at recombinant HIV-1 IN (setting [4]) it was 0.5 µM; on wild-type HIV-1 IN (setting [5]), 0.4 µM; at wild-type HIV-1 IN (setting [6]) it was 0.5 µM. Further, the IC50 at wild-type HIV-1 IN (setting [7]) came to 0.4 µM; in test [2], 10 µM; at HIV-1 IN active site, 0.6 µM. Also, the “Inhibitory activity during the strand transfer reaction, Q148K/G140S mutant, IC95” value in test [1] is 4.3 ± 0.8 µM. For the same compound, the “Inhibitory activity during the strand transfer reaction, wild-type, IC95” value at wild-type HIV-1 IN (wild-type IN) was determined as 3.5 ± 0.9 µM.

On to `O=[N+]([O-])c1cc([N+](=O)[O-])c2no[n+]([O-])c2c1CBr`, for which the IC50 at recombinant HIV-1 IN (setting [3]) came out at 6 µM; on recombinant HIV-1 IN (setting [4]), 5 µM; on wild-type HIV-1 IN (setting [5]), 2 µM; on wild-type HIV-1 IN (setting [6]) it was 5 µM; in test [2], 25 µM; on HIV-1 IN active site, 6 µM.
